Test system: HeLa cells
Conditions: LD50 vs concerted integration IC50

| Compound | separation (window) between inhibition of concerted integration and toxicity |
| --- | --- |
| O=C(CCCCCNc1ccc([N+](=O)[O-])c2nonc12)ON1C(=O)CCC1=O [II-4] | ~10 fold |
| CCc1ccc(-c2nc3c(=O)n(C)c(=O)nc-3n(CC)n2)cc1 [Formula I-13] | 10 fold |

From patent US11389455B2, “Inhibitors of HIV-1 integrase multimerization” (Institute for Cancer Research, priority 2017, dated 2022)
